The target in one data set is T1, RcsB-6His (UniProt E0SDZ3).
T1 sequence (looked up, limits assumed): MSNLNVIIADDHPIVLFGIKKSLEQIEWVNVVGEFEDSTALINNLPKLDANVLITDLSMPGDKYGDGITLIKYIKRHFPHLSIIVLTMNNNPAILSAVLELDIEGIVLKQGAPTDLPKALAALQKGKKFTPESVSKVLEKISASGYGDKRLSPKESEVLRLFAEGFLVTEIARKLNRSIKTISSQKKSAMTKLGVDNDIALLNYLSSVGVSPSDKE
The experiment in a line: EMSA. The settings on record: 10 mM Tris pH 7.5, 50 mM NaCl, 0.5 mM DTT, 1 mM MgCl2, 2.5% glycerol; 20 min at room temperature; 50 ng DNA in 20 ul; 6% acrylamide-TBE gel; recombinant …; protein details: 6xHis; label: none (ethidium bromide staining); probe letters rebuilt from the primers and the genome. A general note: Mobility shift assays separate free from complexed probe on a gel.

Data set [1] has as its target T2, OmpR-6His (Dickeya dadantii 3937 (EC3937)) (UniProt E0SJT3).
T2 sequence (looked up): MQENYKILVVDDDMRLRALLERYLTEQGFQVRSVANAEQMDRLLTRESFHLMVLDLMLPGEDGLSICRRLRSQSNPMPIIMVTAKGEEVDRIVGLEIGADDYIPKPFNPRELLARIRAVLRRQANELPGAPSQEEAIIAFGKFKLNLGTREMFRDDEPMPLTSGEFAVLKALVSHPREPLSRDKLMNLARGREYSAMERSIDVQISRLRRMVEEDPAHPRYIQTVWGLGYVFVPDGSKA
The experiment in a line: EMSA. The conditions noted are these: 10 mM Tris pH 7.5, 50 mM NaCl, 0.5 mM DTT, 1 mM MgCl2, 2.5% glycerol; 20 min at room temperature; 50 ng DNA in 20 ul; 6% acrylamide-TBE gel; recombinant …; residues 1-239; protein details: His-tag (pET100/D-Topo); label: none (ethidium bromide staining); probe letters rebuilt from the primers and the genome.

A negative result means that nothing was seen under these conditions. Protein sequences can lack the tags named with them. For some assays here: For at least one entry, the source does not settle the construct or the ends of the probe.

For the sequence “AACTGACCAGCATGGGATTCTTCGCCACCAGTACTTTTTTTGTGTTATCCGGCTTTCTGCTGACGCACGTTTATCTGCGTGACGGCCAGTTGCGGGAACCCGCCCGACACTTTTTAGCCAAGCGGTTGTTTAACCTCTACCCGATTCATATCATCGGTCTGGTGTCATCCATCGTCGTGGTCAGCCTGATGCACTGGCTGGCGATTCCGCCGGAAGGTCAGGTCGCTAGCGCCCGCTTCGTGATTTACGACAGCAACGACCCCAGCGTCGCGCCGGAAACATTACGCCACTACATGGATAACGCTGAACTGGCTTTTAACGGCTTGTTGCAATTACTGATGTTGCAGGCGTGGAACCCCTACTTTCTGACCTTCAACGCGCCGTTGTGGTCGGTGTCGACATTGTTCTTCTTCTATTTGCTGTTCCCACTGCTGGCGCCGCGGCTGTTGGGCAGTCGTCACCCGCGCCTGTGGTTGATGGCGATGTTCGTGCTGTATTTACTGCCGCCGATATGGGTGATCTGGCATCAATTATATGGCGCGCCATACACCGGCCTGCTACAACGCAACCCC (double strand) [opgC mid-coding control fragment]”, the binding result (in the data set with RcsB-6His; in data set [1]) was “no binding” each time.

The record behind these values is publication PMC4726272.
